Measured values from article PMC5542705.
For some assays here: Where a protein sequence is shown, tags need not be part of it.

Assays:
Mst12 = molecular target: T1, Mst12 (UniProt Q96UQ9); experiment: EMSA; conditions: recombinant protein; residues 1-715; protein details: His (modified pET28, HisTrap); label: biotin-11-UTP 3' end (TdT); probe letters rebuilt from the primers and the genome
T1 sequence (looked up): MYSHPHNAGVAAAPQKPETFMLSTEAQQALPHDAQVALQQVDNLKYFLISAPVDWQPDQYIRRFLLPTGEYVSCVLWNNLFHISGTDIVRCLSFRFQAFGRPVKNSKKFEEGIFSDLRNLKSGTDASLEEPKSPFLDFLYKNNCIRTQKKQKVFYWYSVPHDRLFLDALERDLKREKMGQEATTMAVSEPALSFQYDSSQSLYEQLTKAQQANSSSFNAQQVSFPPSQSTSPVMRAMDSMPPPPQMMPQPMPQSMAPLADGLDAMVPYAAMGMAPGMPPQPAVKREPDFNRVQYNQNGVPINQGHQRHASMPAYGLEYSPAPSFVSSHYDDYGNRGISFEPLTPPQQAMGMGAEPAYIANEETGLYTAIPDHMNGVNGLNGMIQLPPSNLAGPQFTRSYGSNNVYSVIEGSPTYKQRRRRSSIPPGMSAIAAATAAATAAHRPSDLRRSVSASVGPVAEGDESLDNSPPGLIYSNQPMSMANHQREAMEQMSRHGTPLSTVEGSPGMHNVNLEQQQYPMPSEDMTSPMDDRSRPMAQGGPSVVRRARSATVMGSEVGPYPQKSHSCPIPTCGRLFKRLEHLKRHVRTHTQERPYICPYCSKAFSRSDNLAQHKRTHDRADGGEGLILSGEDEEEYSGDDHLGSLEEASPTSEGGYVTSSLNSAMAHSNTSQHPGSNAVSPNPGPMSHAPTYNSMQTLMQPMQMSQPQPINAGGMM

Mst12 + Tpc1 = experiment: EMSA; conditions: recombinant protein; label: biotin-11-UTP 3' end (TdT); probe letters rebuilt from the primers and the genome

“CGTGTGTGTACCCCACAAGCTAGCCCATGCTGGTTCTTAAACTCGCATGCGTCCCGCTTGGTGAAGATCAAGCAAAACCTCTGACATGCTAAATACCCCAACTGCCTCACAACGCCTCCTGAATCTCGCCCTCGTCCGTTTGTCTGATCCTCAAACAACCATCCATGCCGAACCGAACCACTGTCACAGTGAAATCGACTTTTTGGCTACACCTTTTCCGTGTTTGCCCTGCGCAATAGTACTAGGAATTGCGCCCCGCCTAACCGCCCCTTCAGGCATCTCGCTTGCTCCTGGACCTCTCCACCCAAGAAACAGCGAATCCGTATCATGCCGTCCGGATGCCTGCTGCCATCATAGACCAGATCAGCAGGACGTGGATCACAAACGACACCATTCTAAGGGGCGTCGCCTCACCAAATAAAAAAAAACATCCGACACAGACCCCGGCCTGTCAGAACAAGCTCGTCTGTTACGTCGTCGGTAC / CGACGACGTAACAGACGAGCTTGTTCTGACAGGCCGGGGTCTGTGTCGGATGTTTTTTTTTATTTGGTGAGGCGACGCCCCTTAGAATGGTGTCGTTTGTGATCCACGTCCTGCTGATCTGGTCTATGATGGCAGCAGGCATCCGGACGGCATGATACGGATTCGCTGTTTCTTGGGTGGAGAGGTCCAGGAGCAAGCGAGATGCCTGAAGGGGCGGTTAGGCGGGGCGCAATTCCTAGTACTATTGCGCAGGGCAAACACGGAAAAGGTGTAGCCAAAAAGTCGATTTCACTGTGACAGTGGTTCGGTTCGGCATGGATGGTTGTTTGAGGATCAGACAAACGGACGAGGGCGAGATTCAGGAGGCGTTGTGAGGCAGTTGGGGTATTTAGCATGTCAGAGGTTTTGCTTGATCTTCACCAAGCGGGACGCATGCGAGTTTAAGAACCAGCATGGGCTAGCTTGTGGGGTACACACACGGTAC [NOXD promoter probe 1]”: binds (Mst12); binds (Mst12 + Tpc1).
